PMC2743695 (BMC Structural Biology, 2009)

Tested on: C[C@@H](N)C(=O)O
Assay: purified protein

AlrBax (Dal1, alanine racemase from Bacillus anthracis Ames) (Bacillus anthracis)
Km: 2800 µM
